Pooled drug test results. Numbers come from NIAID ChemDB, via PubChem.

Common to all: cytotoxicity tests; measure: CC50

Blank or dashed fields: not listed here.

structure,cell line,read by,value
COc1cnc(CS(=O)c2nc3ccc(C)cc3[nH]2)c(C)c1OC,HEK293T,MTT,75 µM
N#Cc1c(Nc2ccc(C(=O)c3ccccc3)cc2)s[nH]c1=O,Huh7,,>50 µM
CC(C)=CCC/C(C)=C/CC/C(=C\CC/C(C)=C/C(=O)O)C(=O)O,NCI-H187,resazurin,>20 µg/mL
Nc1nc(N)c2cc3c(ccc4ccccc43)nc2n1,HCF-7,MTT,8.6 µM
N#Cc1c(Nc2ccc([N+](=O)[O-])cc2)s[nH]c1=O,Huh7,,>50 µM
CC(C)Oc1nc(N)nc2ccc(-c3ccc(C(=O)NC(C)(C)C)cc3)nc12,Huh7,,>20 µM
Cc1cc(OCc2ccc(-c3cccc(C#N)c3)cc2)cnc1CS(=O)c1nc2ccccc2[nH]1,HEK293T,MTT,5 µM
Nc1nc2c(ncn2COC(CO)CO)c(=O)[nH]1,OMK,cell count,>900 µM
O=C(C(=O)N1CCN(C(=O)c2ccccc2)CC1)c1c[nH]c2c(-c3ncon3)ncc(F)c12,HeLa,trypan blue,>100 µM
COC(=O)c1ccc(OCc2cnc(CS(=O)c3nc4ccccc4[nH]3)c(C)c2)c(OC)c1,HEK293T,MTT,37.5 µM
O=c1[nH]c(=O)n([C@H]2C[C@H](O)[C@@H](CO)O2)cc1/C=C/Br,P3HR-1,,360 µM
CCOc1cccc(-c2ccc(C(=O)N(Cc3cccc(OCCCCCC(=O)OC(=O)O)c3)C(C)C)cc2)c1,RAJI,,>20 µM
CCc1nc(-c2ccc(OCCC(C)CCN3CCN(c4ccncc4)C3=O)cc2)no1,RD,,>25 µM
O=C(NCCc1ccc2c(n1)NCCC2)Nc1ccc(Cl)cc1C(F)(F)F,PBMC,,25 µM
CCOC(=O)CCCCCOc1cccc(CN(C(=O)c2ccc(-c3cc(OC)ccc3F)cc2)C(C)C)c1,BJ,,>20 µM
COC(=O)c1ccc(OCCCOc2ccnc(CSc3nc4ccccc4[nH]3)c2C)cc1OC,HEK293T,MTT,80 µM
N#Cc1c(Nc2ccc(Cl)cn2)s[nH]c1=O,Huh7,,>50 µM
CC(C)c1cc2c(o1)C(=O)c1ccccc1C2=O,2C4 fibroblasts,,1 µg/mL
O=C(O)c1cc(-c2cccs2)nc2ccccc12,HEK 293,,>20 µM
O=c1[nH]c(=O)n([C@H]2C[C@H](O)[C@@H](CO)O2)cc1/C=C/Cl,RF,cell count,>70 µM
O=C(NCCc1ccc2c(n1)NCCC2)Nc1ccc(Br)cc1,PBMC,,1.2 µM
CC(C)(C)OC(=O)Nc1ccc2c(c1)Cc1cc(NC(N)=S)ccc1-2,Ava5-EG(delta4AB)SEAP,MTS,>1 µM
CC(C)Oc1nc(N)nc2ccc(-c3ccc(C(=O)NC4CC4)cc3)nc12,Huh7,,>20 µM
Nc1nc(N)c2cc3c(nc2n1)CCc1ccccc1-3,HCT116,MTT,25 µM
O=C(NCc1ccc(Cl)cc1)c1cn2c3c(cc(CN4CCOCC4)cc3c1=O)OC(c1cccnc1)C2,DAUDI,MTS,>94 µM
O=C(C(=O)N1CCN(C(=O)c2ccccc2)CC1)c1c[nH]c2c(-n3ccnn3)ccnc12,HeLa,trypan blue,>100 µM
Cc1c(OCCOCCOCCOc2ccnc(CS(=O)c3nc4ccccc4[nH]3)c2C)ccnc1CSc1nc2ccccc2[nH]1,HEK293T,MTT,1 µM
CN1C=CN(c2cccc(N3C=CN(C)C3)n2)C1.[Cl][Au].[Cl][Au],HT-29,sulforhodamine / absorbance,>30 µM
N#Cc1c(Nc2cccc(Cl)c2)s[nH]c1=O,Huh7,,>50 µM
Cc1c(CC(=O)N[C@@H](Cc2ccccc2)C(=O)N(C)c2ccc3c(c2)OCO3)c(C2CC2)nn1CCO,MT-2,ATP,>20 µM
CCc1cc2c(o1)-c1ccccc1C(=O)C2=O,2C4 fibroblasts,,0.01 µg/mL
CCOc1nc(N)nc2ccc(-c3ccc(NC(=O)C4(O)CC4)cc3)nc12,Huh7,,>20 µM
COc1cnc(-c2cccn2C)c2[nH]cc(C(=O)C(=O)N3CCN(C(=O)c4ccccc4)CC3)c12,HeLa,trypan blue,≤100 µM
NC(=S)Nc1cccc(OCCCCCOc2ccccc2)c1,Ava5-EG(delta4AB)SEAP,MTS,>1 µM
CCC/C=C/C1=C(O)c2ccccc2C(=O)C1=O,2C4 fibroblasts,,>50 µg/mL
OC[C@H]1O[C@@H](n2ccc3c(-c4ccco4)nc(F)nc32)C(O)C1O,MRC-5 fibroblast,MTT,135.8 µM
O=C1N(CCC(CCOc2ccc(-c3ccc(Cl)cc3)cc2)Cc2ccccc2)CCN1c1ccncc1,RD,,>10 µM
Nc1nccc2c1ncn2[C@@H]1O[C@H](CO)[C@@H](O)[C@H]1O,PBMC,,9.99 µM
Cc1c(CCO)c(C2CC2)nn1CC(=O)N[C@@H](Cc1ccccc1)C(=O)N(C)c1cnc2ccccc2c1,MT-2,ATP,>20 µM
CC(C)/C=C/C1=C(O)c2ccccc2C(=O)C1=O,2C4 fibroblasts,,>50 µg/mL
Nc1nccc2c1ncn2[C@@H]1C=C(CO)[C@@H](O)[C@H]1O,U1,,10–25 µM
Cc1nc(N)nc2c1ccn2[C@@H]1O[C@H](CO)C(O)C1O,CEM-DNR leukemia cells,MTT,35.1 µM
Cc1nn(CCO)c(C2CC2)c1CC(=O)N[C@@H](Cc1ccccc1)C(=O)N(C)c1ccc2c(c1)OCO2,MT-2,ATP,>20 µM
Nc1nc(N2CCS(=O)(=O)CC2)c2nc(-c3ccc(C(=O)NC4CC4)cc3)ccc2n1,Huh7,,10–20 µM
Nc1nc2c(ncn2CC(CO)CCO)c(=O)[nH]1,HL,,>800 µM
CC(=O)Nc1ccc(-c2ccc3nc(N)nc(N4CCS(=O)(=O)CC4)c3n2)cc1,Huh7,,>20 µM
Cc1c(CCO)c(C(C)C)nn1CC(=O)N[C@@H](Cc1ccccc1)C(=O)N(C)c1ccc2c(c1)OCO2,MT-2,ATP,>20 µM
CCCNc1ccc2c(c1)Cc1cc(NC(N)=S)ccc1-2,Ava5-EG(delta4AB)SEAP,MTS,>1 µM
C=Cc1c(C(F)(F)F)nn(CC(=O)N[C@@H](Cc2ccccc2)C(=O)N(C)c2ccc3c(c2)OCO3)c1C,MT-2,ATP,>20 µM
NC(=S)Nc1cccc(OCCCCCOc2ccc(Cl)cc2)c1,Ava5-EG(delta4AB)SEAP,MTS,>1 µM
Nc1nc(=O)c2ncn([C@@H]3O[C@H](CO)[C@@H](O)[C@H]3O)c2c(=O)[nH]1,BFU-E,,58 µM
Cn1cc(C(=O)NCc2ccc(Cl)cc2)c(=O)c2c1SC(CN1CCOCC1)C2,CBL,MTS,>23.1 µM
N#Cc1c(Nc2cccnc2)s[nH]c1=O,Huh7,,>50 µM
O=C(NCCc1ccc2c(c1)NCCC2)Nc1ccc(C(F)(F)F)cc1,PBMC,,50 µM
NC(=S)Nc1cccc(OCCCCCOc2ccc(C(=O)Oc3ccccc3)cc2)c1,Ava5-EG(delta4AB)SEAP,MTS,>1 µM
CCCc1cc2c(o1)-c1ccccc1C(=O)C2=O,2C4 fibroblasts,,0.01 µg/mL
CCOC(=O)Cc1c(C)nn(CC(=O)N[C@@H](Cc2ccccc2)C(=O)N(C)c2ccc3c(c2)OCO3)c1CC,MT-2,ATP,>20 µM
Cc1ccc(-c2ccccc2OCCCCCOc2cccc(NC(N)=S)c2)cc1,Ava5-EG(delta4AB)SEAP,MTS,>1 µM
Cc1nc(-c2ccc(OCCC(C)CCN3CCN(c4ccncc4)C3=O)cc2)no1,RD,,>6.25 µM
Cc1cc(OCc2ccc(-c3cccc(C(=O)O)c3)cc2)cnc1CS(=O)c1nc2ccccc2[nH]1,HEK293T,MTT,80 µM
CCC(=O)Nc1ccc(-c2ccc3nc(N)nc(OCCOC)c3n2)cc1,Huh7,,>20 µM
OC[C@H]1O[C@@H](n2ccc3c(-c4cccc5c4oc4ccccc45)nc(Cl)nc32)C(O)C1O,CEM-DNR leukemia cells,MTT,30.9 µM
Nc1ncnc2c1ncn2CC[C@@H](CO)OCP(=O)(O)O,MRS-5,,>100 µg/mL
COc1cnc(-c2nnn(C)n2)c2[nH]cc(C(=O)C(=O)N3CCN(C(=O)c4ccccc4)CC3)c12,HeLa,trypan blue,>100 µM
N#Cc1c(Nc2cccc([N+](=O)[O-])c2)s[nH]c1=O,Huh7,,>50 µM
Nc1nc2c(ncn2COC(CO)CO)c(=O)[nH]1,MRS-5,,>100 µg/mL
CC(CCCCOc1ccc(-c2ccc(Cl)cc2)cc1)N1CCN(c2ccncc2)C1=O,RD,,12.5 µM
COc1cnc(-n2cnc(C(=O)N(C)C)n2)c2[nH]cc(C(=O)C(=O)N3CCN(C(=O)c4ccccc4)CC3)c12,HeLa,trypan blue,>100 µM
Cc1nn(CC(=O)N[C@@H](Cc2ccccc2)C(=O)N(C)c2ccc3c(c2)OCO3)c(CC(C)C)c1CCO,MT-2,ATP,>20 µM
CC(C)[C@@H]1NC(=O)[C@@H](C(C)C)OC(=O)[C@H](C(C)C)N(C)C(=O)[C@@H](C(C)C)OC(=O)[C@H](C(C)C)N(C)C(=O)[C@@H](C(C)C)OC1=O,KB cells,absorbance,2.24 µM
COCCOc1nc(N)nc2ccc(-c3ccc(C(=O)NC(C)C)cc3)nc12,Huh7,,>20 µM
Cc1cc(OCCCOc2ccc(-c3cccc(C#N)c3)cc2)cnc1CS(=O)c1nc2ccccc2[nH]1,HEK293T,MTT,>100 µM
Cc1c(CCO)c(C2CC2)nn1CC(=O)N[C@@H](Cc1ccccc1)C(=O)N(C)c1ccc2ncccc2c1,MT-2,ATP,>20 µM
CCOc1nc(N)nc2ccc(-c3ncc(N)s3)nc12,Huh7,,10–20 µM
CSc1ccc(NC(=O)NCCc2ccc3c(n2)NCCC3)cc1,PBMC,,1.3 µM
CCCCCCCCCCCC(=O)c1c(O)cc(O)cc1O,BC,resazurin,9.04 µg/mL
OC[C@H]1O[C@@H](n2ccc3c(-c4cc5ccccc5o4)nc(F)nc32)C(O)C1O,CEM-DNR leukemia cells,MTT,37.7 µM
CCOC(=O)COc1ccc(CO)cc1,RAJI,,>20 µM
Nc1nc(=O)n([C@H]2C[C@H](O)[C@@H](CO)O2)cc1/C=C/Cl,BCBL-1,cell count,184 µM
O=S(=O)(NCCc1ccc2c(n1)NCCC2)c1ccccc1,PBMC,,50 µM
OC[C@H]1O[C@@H](n2ccc3c(-c4cccs4)nc(F)nc32)C(O)C1O,K562 leukemia cells,MTT,49.2 µM
O=c1[nH]c(=O)n([C@@H]2O[C@H](CO)[C@@H](O)[C@@H]2O)cc1/C=C/Br,NIH 3T3,cell count,530 µM

For reference, 11 entries again:

structure	cell line	read by	value
CC(C)c1cc2c(o1)C(=O)c1ccccc1C2=O	2C4 fibroblasts		1 µg/mL
O=C(NCc1ccc(Cl)cc1)c1cn2c3c(cc(CN4CCOCC4)cc3c1=O)OC(c1cccnc1)C2	DAUDI	MTS	>94 µM
CC(C)=CCC/C(C)=C/CC/C(=C\CC/C(C)=C/C(=O)O)C(=O)O	NCI-H187	resazurin	>20 µg/mL
Nc1nc(=O)c2ncn([C@@H]3O[C@H](CO)[C@@H](O)[C@H]3O)c2c(=O)[nH]1	BFU-E		58 µM
O=c1[nH]c(=O)n([C@@H]2O[C@H](CO)[C@@H](O)[C@@H]2O)cc1/C=C/Br	NIH 3T3	cell count	530 µM
CCc1cc2c(o1)-c1ccccc1C(=O)C2=O	2C4 fibroblasts		0.01 µg/mL
Cc1c(CCO)c(C2CC2)nn1CC(=O)N[C@@H](Cc1ccccc1)C(=O)N(C)c1ccc2ncccc2c1	MT-2	ATP	>20 µM
O=C(NCCc1ccc2c(c1)NCCC2)Nc1ccc(C(F)(F)F)cc1	PBMC		50 µM
Cc1nn(CCO)c(C2CC2)c1CC(=O)N[C@@H](Cc1ccccc1)C(=O)N(C)c1ccc2c(c1)OCO2	MT-2	ATP	>20 µM
CCOC(=O)CCCCCOc1cccc(CN(C(=O)c2ccc(-c3cc(OC)ccc3F)cc2)C(C)C)c1	BJ		>20 µM
CCOC(=O)COc1ccc(CO)cc1	RAJI		>20 µM

CCn is the concentration with n% toxicity to the cells. Conditions beyond the fields shown may differ between rows. a–b is a range or a potency band.